US20170049848A1, “Target for Firmicutes and Related Bacteria: The PRP Protease” (VIRGINIA COMMONWEALTH UNIVERSITY, published 2017)

Molecular target: Staphylococcus aureus ribosomal protein L27 with C-terminal Myc and His6 tags (Staphylococcus aureus, UniProt Q2FXT0 1-94)

Binder | binding result
Staphylococcus aureus Prp C34A, untagged (enzyme) MITVDITVNDEGKVTDVIMDGHADHGEYGHDIVAAGASAVLFGSVNAIIGLTSERPDINYDDNGGHFHIRSVDTNNDEAQLILQTMLVSLQTIEEEYNENIRLNYK | binds
Staphylococcus aureus Prp N46A, untagged (enzyme) MITVDITVNDEGKVTDVIMDGHADHGEYGHDIVCAGASAVLFGSVAAIIGLTSERPDINYDDNGGHFHIRSVDTNNDEAQLILQTMLVSLQTIEEEYNENIRLNYK | binds
